Results deposited as PubChem BioAssay AID624099 (ICCB-Longwood, 2012).

Purpose: 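Human genes that papillomavirus E2 requires to repress the HPV18 LCR promoter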 (primary screen)
System: human C33A cervical carcinoma cells (HPV-negative) stably expressing BPV1 E2 and an HPV18 LCR luciferase reporter
Reagents: siRNA pool against human genes, 40 nM
Time to read-out: 72 h
Read-out: 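HPV18 LCR reporter light per well, converted to plate-wise z-scores that exclude control wells, and averaged over triplicate plates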
Direction: mean z-score and z-score: higher = stronger reporter signal, weaker E2 silencing
Rule for the call: 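Hit if mean z-score reaches 2 and two or more of three replicate z-scores also reach 2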
Shown is one part, drawn at random, of about 21,000 reagents tested. Over the whole deposit, 497 (2.4%) got an active call. 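Higher z means weaker E2 silencing; only reporter increases were scored, and knock-downs that hurt cell survival may mask genuine repressor factors.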

TBC1D31 scored mean z-score 1.05; z-score, replicate A = 1.34; z-score, replicate B = 0.66; z-score, replicate C = 1.16; inactive.
Knock-down of ZNF765 gave: mean z-score -0.75; z-score, replicate A = -0.9; z-score, replicate B = -0.71; z-score, replicate C = -0.63; inactive.
Silencing of TAFA2 gave: mean z-score -0.28; z-score, replicate A = -0.19; z-score, replicate B = -0.19; z-score, replicate C = -0.45; inactive.
MAB21L1 scored mean z-score -0.03; z-score, replicate A = -0.07; z-score, replicate B = -0.19; z-score, replicate C = 0.17; inactive.
After knock-down of MALT1, the record shows mean z-score -0.44; z-score, replicate A = -0.75; z-score, replicate B = -0.47; z-score, replicate C = -0.11; inactive.
Against ASPHD2 the deposit lists mean z-score -0.62; z-score, replicate A = -1.04; z-score, replicate B = -0.42; z-score, replicate C = -0.4; inactive.
HDAC4 gave mean z-score 1.61; z-score, replicate A = 1.77; z-score, replicate B = 1.6; z-score, replicate C = 1.47; inactive.
For TRPC4 the deposit lists mean z-score 0.17; z-score, replicate A = 0.08; z-score, replicate B = 0.18; z-score, replicate C = 0.25; inactive.
For MBD6 the deposit lists mean z-score 0.2; z-score, replicate A = 0.17; z-score, replicate B = 0.12; z-score, replicate C = 0.31; inactive.
NACC1 showed mean z-score 0.11; z-score, replicate A = 0.5; z-score, replicate B = 0.06; z-score, replicate C = -0.22; inactive.
Depletion of ANAPC1 resulted in: mean z-score -0.06; z-score, replicate A = 0.05; z-score, replicate B = -0.16; z-score, replicate C = -0.07; inactive.
For HAUS4, the values are mean z-score -0.42; z-score, replicate A = -0.57; z-score, replicate B = 0.08; z-score, replicate C = -0.78; inactive.

Individual results from above:
Value of ANAPC1 under “z-score, replicate C”: -0.07
Result of HDAC4 under “z-score, replicate A”: 1.77
